Anti-infective test results gathered from many reports (values: NIAID ChemDB through PubChem).

Shared fields: growth or infection tests; organism: Mycobacterium tuberculosis

Blank or dashed fields: not listed here.

compound,tested at,read-out,cell line,read by,strain or isolate,result
Cc1cc(=O)c2c([nH]1)c1c(c3[nH]c(C)cc(=O)c32)Oc2ccccc2O1,,MIC,VERO,,H37Rv,0.8 µg/mL
c1coc(-c2ncnc3nc[nH]c23)c1,,EC50,,,H37Rv,>6.25 µg/mL
CCN(CC)c1ccc(-c2ccc3cc(Cl)ccc3n2)cc1,,MIC,,,H37Rv,>100 µg/mL
N/C(=N\NC(CC(=O)c1ccc(Cl)c(Cl)c1)c1ccccn1)c1ccccn1,,MIC,,,H37Rv,2 µg/mL
COc1c(Cl)cc(-c2ccc(C(=O)C(Cl)Cl)cc2)cc1Cl,,MIC,,,H37Rv,6.25 µg/mL
OC1C(O)C(O)C(O)C(O)C1O,12.5 µg/mL,inhibition,,BACTEC,H37Rv,13%
N/C(=N\NC(CC(=O)c1cccc(Cl)c1)c1ccccn1)c1ccccn1,,MIC,,,H37Rv,16 µg/mL
CC12OC1C(=O)c1ccccc1C2=O,,MIC,,,H37Rv,50 µg/mL
Nc1nnc(-c2ccc([N+](=O)[O-])o2)s1,6.25 µg/mL,inhibition,,resazurin,H37Rv,9%
COC(=O)c1ccc(Oc2cc(C=O)cc(OC)c2OC)cc1,,MIC,,,H37Rv,62.5 µg/mL
c1ccc(Cn2cnc3c(-c4ccccc4)ncnc32)cc1,,EC50,,,H37Rv,<6.25 µg/mL
O=C(c1ccc(Cc2ccc(C(=O)C(Cl)Cl)cc2)cc1)C(Cl)Cl,,MIC,,,H37Rv,12.5 µg/mL
COc1cc2c(cc1C(=O)O)oc1ccccc12,,MIC,,,H37Rv,>100 µg/mL
Fc1ccc(CNCc2c[nH]c3ccccc23)cc1F,,MIC,,,H37Ra,32 µg/mL
CC(C)(C)c1ccc(CO[C@@H]2COc3nc([N+](=O)[O-])cn3C2)cc1,,MIC,,,W (MDR),0.03 µg/mL
O=C(O)c1cccc([N+](=O)[O-])c1C(=O)O,,MIC,,,H37Rv,>100 µg/mL
CN(C)Cc1c[nH]c2ccccc12,,MIC,,,H37Ra,>256 µg/mL
CC(C)c1ccc2nc3ccc(C(=O)NCCN(C)C)cn3c(=O)c2c1,12.5 µg/mL,inhibition,,BACTEC,H37Rv,25%
CCOC(=O)Cc1csc(NC(=O)CSC(=S)N2CCCC2)n1,,MIC,,,H37Rv,>156 µg/mL
Cc1ccc(C(=O)CC(N/N=C(\N)c2ccccn2)c2ccccn2)cc1,,MIC,,,H37Rv,1 µg/mL
Fc1ccc(CNCc2c[nH]c3ccccc23)cc1,,MIC,,,H37Ra,32 µg/mL
Cc1cccc(C(=O)CC(N/N=C(\N)c2ccccn2)c2ccncc2)c1,,MIC,,,H37Rv,8 µg/mL
CCCC(N=C(N)N)C(=O)O,,MIC,,,H37Rv,>100 µg/mL
CCCCc1ccc(CO[C@@H]2COc3nc([N+](=O)[O-])cn3C2)cc1,,MIC,,,H37Rv,0.015 µg/mL
O=c1ssc(Cl)c1Cl,,MIC,,BACTEC,H37Rv,≥12.5 µg/mL
Clc1nc(-c2cccs2)c2ncn(C3CCOCC3)c2n1,,EC50,,,H37Rv,>6.25 µg/mL
NC(=O)C(N)=O,,MIC,,,H37Rv,>100 µg/mL
O=C(O)c1ccccc1C(=O)Oc1ccccc1Oc1ccccc1O,,MIC,,,H37Rv,1000 µg/mL
CO[C@H]1/C=C/O[C@@]2(C)Oc3c(C)c(O)c4c(=O)c(c5oc6cc(N7CCN(CC(C)C)CC7)cc(=O)c6nc5c4c3=C2O)NC(=O)/C(C)=C\C=C\[C@H](C)[C@H](O)[C@@H](C)[C@@H](O)[C@@H](C)[C@H](OC(C)=O)[C@@H]1C,,MIC,,,CSU22,>5 µg/mL
N/C(=N\NC(CC(=O)c1cccc(Cl)c1)c1cccnc1)c1ccccn1,,MIC,,,H37Rv,8 µg/mL
Nc1ccc(Br)cc1-c1ccccc1,,MIC,,,H37Rv,>100 µg/mL
Cn1cc(C(C[N+](=O)[O-])C[N+](=O)[O-])c2ccccc21,,MIC,,,H37Ra,>128 µg/mL
OC[C@@H]1O[C@@H](n2cnc3c(-c4ccco4)nc(Cl)nc32)[C@@H](O)[C@@H]1O,,EC50,,,H37Rv,>6.25 µg/mL
O=C(CCl)c1ccc(S(=O)(=O)c2ccccc2)cc1,,MIC,,,H37Rv,100 µg/mL
CCC(C)(C)c1ccc(Nc2cc(=O)[nH][nH]2)cc1,,MIC,,,H37Rv,>100 µg/mL
Clc1cc(Cl)cc(CNCc2c[nH]c3ccccc23)c1,,MIC,,,H37Ra,16 µg/mL
CCN(CC)CCSc1ccc2ccccc2n1.Cl,,MIC,,,H37Rv,>100 µg/mL
C/C(CC(=O)Nc1ccc(Cl)c(Cl)c1)=N\NC(=O)C[n+]1ccccc1.[Cl-],,MIC bound,,BACTEC,H37Rv,>12.5 µg/mL
O=C1C2=Nc3ccccc3C(c3c[nH]c4ccccc34)N2c2ccccc21,,MIC90,,resazurin,H37Rv,>50 µg/mL
CCOC(=O)Cc1csc(NC(=O)C(SC(=S)N2CCC(Cc3ccccc3)CC2)c2ccccc2)n1,,MIC,,,H37Rv,>156 µg/mL
CN(C)c1ccc2nc3ccc(=N)cc-3sc2c1.Cl,,MIC,,BACTEC,H37Rv,≥12.5 µg/mL
COC(=O)Cc1cc(I)c(Oc2ccc(OC)cc2)c(I)c1,,MIC,,,H37Rv,250 µg/mL
O=C(c1ccc(S(=O)(=O)c2ccccc2)cc1)C(Cl)Cl,,MIC,,,H37Rv,6.25 µg/mL
COc1ccc(CC(=S)N2CCOCC2)cc1,,MIC,,,H37Rv,250 µg/mL
CCOC(=O)Cc1csc(NC(=O)C(SC(=S)N(C)C)c2ccccc2)n1,,MIC,,,H37Rv,>156 µg/mL
COc1cc(/C=C/[N+](=O)[O-])cc(Br)c1OC,,MIC,,,H37Rv,500 µg/mL
ClCCN1c2ccccc2Oc2ccc3ccccc3c21,12.5 µg/mL,inhibition,,BACTEC,H37Rv,85%
CO[C@H]1/C=C/O[C@@]2(C)Oc3c(C)c(O)c4c(O)c(c(/C=N/N5CCN(C6CCCC6)CC5)c(O)c4c3C2=O)NC(=O)/C(C)=C\C=C\[C@H](C)[C@H](O)[C@@H](C)[C@@H](O)[C@@H](C)[C@H](OC(C)=O)[C@@H]1C,,MIC,,,Erdman,0.6 µg/mL
Cc1ccc(NC(=O)c2ccco2)cc1Cl,,MIC bound,,BACTEC,H37Rv,≤12.5 µg/mL
NCCc1c[nH]c2ccccc12,,MIC,,,H37Ra,256 µg/mL
c1csc(-c2ncnc3c2ncn3C2CCOCC2)c1,,EC50,,,H37Rv,>6.25 µg/mL
Clc1ccccc1CNCc1c[nH]c2ccccc12,,MIC,,,H37Ra,32 µg/mL
COc1ccc(CN2C(=O)C(=O)N(C)C2=O)c2ccccc12,,MIC bound,,BACTEC,H37Rv,>12.5 µg/mL
Clc1nc(-c2ccco2)c2ncn(C3CCOCC3)c2n1,,EC50,,,H37Rv,>6.25 µg/mL
CCOC(=O)Cc1csc(NC(=O)CSC(=S)N2CCC(Cc3ccccc3)CC2)n1,,MIC,,,H37Rv,>156 µg/mL
CCCCCCCCCCCCSc1ccnc2cc(Cl)ccc12,,MIC,,,H37Rv,>100 µg/mL
O=[N+]([O-])c1cn2c(n1)OC[C@@H](OCc1ccc(OCc3ccccc3)cc1)C2,,MIC,,,H37Rv,0.015 µg/mL
CC[Si](CC)(OCCCc1ccncc1)OCCCc1ccncc1,,MIC,,,H37Rv,>100 µg/mL
Clc1ccc(CNCc2c[nH]c3ccccc23)cc1,,MIC,,,H37Ra,16 µg/mL
COC1=CC(=O)C=C(OC)C1=O,,MIC,,BACTEC,H37Rv,≥128 µg/mL
CC(=O)OC[C@@]12CC[C@]3(C(=O)O)[C@@H](C(C)C)CC[C@H]3[C@@H]1C1C=C(C)C(C2)OO1,,MIC,,resazurin,H37Rv,100 µg/mL
CCOC(=O)Cc1csc(NC(=O)CSC(=S)N2CCOCC2)n1,,MIC,,,H37Rv,>156 µg/mL
Br.CCN(CC)CCNc1cc(OCCO)cc2cccnc12,,MIC,,,H37Rv,>100 µg/mL
COc1ccc(CSC(=S)Nc2ccc(N=Nc3ccccc3)cc2)cc1,,MIC,,BACTEC,H37Rv,128 µg/mL
CC(C)[C@H]1CC[C@@H]2[C@]1(C)CCC13CC[C@](C)(O1)[C@H](CO)[C@]23O,,MIC,,resazurin,CIBIN 99,50 µg/mL
O=c1oc2ccc3ccccc3c2cc1-c1nc2ccccc2[nH]1,,MIC bound,,BACTEC,H37Rv,>6.25 µg/mL
Nc1cc(N)c(O)cc1O,,MIC,,,H37Rv,100 µg/mL
COc1nc2cc3c(cc2n2cccc12)oc1ccccc13,,MIC bound,,BACTEC,H37Rv,>12.5 µg/mL
CO[C@H]1/C=C/O[C@@]2(C)Oc3c(C)c(O)c4c(O)c(c5c(c4c3C2=O)NC2(CCN(CC(C)C)CC2)N=5)=NC(=O)/C(C)=C\C=C\[C@H](C)[C@H](O)[C@@H](C)[C@@H](O)[C@@H](C)[C@H](OC(C)=O)[C@@H]1C,,MIC90,,,16 strains (rifampicin-susceptible),0.05 µg/mL
CCOC(=O)Cc1csc(NC(=O)C(SC(=S)N(CC)Cc2ccccc2)c2ccccc2)n1,,MIC,,,H37Rv,>156 µg/mL
Cc1c(O)cc(I)cc1I,,MIC,,,H37Rv,>100 µg/mL
Clc1ccccc1CNCCc1c[nH]c2ccccc12,,MIC,,,H37Ra,32–64 µg/mL
Cc1cccc(C(=O)CC(N/N=C(\N)c2ccccn2)c2ccccn2)c1,,MIC,,,H37Rv,2 µg/mL
Nc1ccc2oc3ccc(N)cc3c2c1,,MIC,,,H37Rv,50 µg/mL
N/C(=N\NC(CC(=O)c1ccccc1)c1ccncc1)c1ccccn1,,MIC,,,H37Rv,8 µg/mL
O=C1C(c2[nH]c3ccccc3c2O)=Nc2ccccc21,,MIC90,,resazurin,H37Rv,27 µg/mL
CC(=O)CCCCC(=O)Nc1ccc(CC(NC(=O)OC(C)(C)C)C(=O)NCC(=O)OCc2ccccc2)cc1,6.25 µg/mL,inhibition,,resazurin,H37Rv,0%
O=C(Nc1ccccc1)c1cccc([N+](=O)[O-])c1,,MIC,,,H37Rv,100 µg/mL
CC(C)[C@H]1CC[C@H]2[C@@H]3C=C[C@](C)(O)CC[C@]3(C)CC[C@]12C(=O)O,,MIC,,resazurin,CIBIN 99,50 µg/mL
O=C(c1ccc(-c2cc(Cl)c(O)c(Cl)c2)cc1)C(Cl)Cl,,MIC,,,H37Rv,6.25 µg/mL
CC(=O)O[C@H]1C[C@]2(C)[C@@H](C(C)C)CC[C@H]2[C@]23C[C@H]2[C@@H](O)CC[C@]13C,,MIC,,resazurin,H37Rv,100 µg/mL
NNC(=O)c1ccncc1,,MIC90,,resazurin,H37Rv,0.12 µg/mL
O=c1ccc([N+](=O)[O-])c[nH]1,,MIC,,,H37Rv,>100 µg/mL
CO[C@@]12[C@H](COC(N)=O)C3=C(C(=O)C(C)=C(NCC4CCCO4)C3=O)N1C[C@@H]1N[C@@H]12,,MIC bound,,BACTEC,H37Rv,≤12.5 µg/mL
CNc1cccc2c1C(=O)c1ccc(Cl)cc1C2=O,,MIC,,,H37Rv,>100 µg/mL
CCn1cc(C(=O)O)c(=O)c2cc(F)c(N3CCNCC3)cc21,,MIC,,,H37Ra,1 µg/mL
O=C(CCl)c1ccc(Sc2ccccc2)cc1,,MIC,,,H37Rv,25 µg/mL
Cc1cc(=O)oc(O)c1N=Nc1ccc(N(C)C)cc1,,MIC bound,,resazurin,H37Rv,>6.25 µg/mL
c1ccc2c(c1)OCCCCCCCCCCOc1ccccc1-2,,MIC,,,H37Rv,>100 µg/mL
CCOC(=O)Cc1csc(NC(=O)CSC(=S)N2C(C)CCCC2C)n1,,MIC,,,H37Rv,>156 µg/mL
Nc1cc(-c2ccc(Cl)cc2)nn1-c1nnc2c(n1)[nH]c1ccccc12,,MIC bound,,resazurin,H37Rv,>6.25 µg/mL
CC1=CCC2=C3CC[C@H](C(C)C)[C@@]3(C)CC(=O)[C@@]2(C)CC1,,MIC,,resazurin,H37Rv,100 µg/mL
NNC(=S)N1CCN(C(=S)NN)CC1,12.5 µg/mL,inhibition,,BACTEC,H37Rv,0%
CCOC(=O)Cc1csc(NC(=O)C(SC(=S)N2CCCCC2C)c2ccccc2)n1,,MIC,,,H37Rv,>156 µg/mL
O=C(N/N=C/c1ccccn1)c1ccncc1,0.5 µM,inhibition,,BACTEC,,99%
CC(=O)C1C(=O)N(c2ccccc2)N=C1C,,MIC,,,H37Rv,50 µg/mL

6 of the rows above, restated:

compound | tested at | read-out | cell line | read by | strain or isolate | result
O=C(N/N=C/c1ccccn1)c1ccncc1 | 0.5 µM | inhibition |  | BACTEC |  | 99%
O=C(c1ccc(-c2cc(Cl)c(O)c(Cl)c2)cc1)C(Cl)Cl |  | MIC |  |  | H37Rv | 6.25 µg/mL
Nc1cc(-c2ccc(Cl)cc2)nn1-c1nnc2c(n1)[nH]c1ccccc12 |  | MIC bound |  | resazurin | H37Rv | >6.25 µg/mL
COC1=CC(=O)C=C(OC)C1=O |  | MIC |  | BACTEC | H37Rv | ≥128 µg/mL
COC(=O)Cc1cc(I)c(Oc2ccc(OC)cc2)c(I)c1 |  | MIC |  |  | H37Rv | 250 µg/mL
COc1cc2c(cc1C(=O)O)oc1ccccc12 |  | MIC |  |  | H37Rv | >100 µg/mL

ECn: concentration that inhibits the pathogen or its effect by n%. A number after MIC or MFC names an inhibition level or a share of isolates. Inhibition is in % at the dose shown (toxicity tests: loss of growth or viability). Two numbers with a dash give a range or band. Neighbouring rows are from separate reports. MIC bound: limit read from a one-dose screen.